# Mutational tolerance of the Zika virus NS2B-NS3 protease

From the data files of Ni et al. 2025, doi:10.1038/s41467-025-63602-z.

The scanned region of Zika virus MR766 is shown below (positions 1-308): NS2B is 2-131, NS3 begins at position 132.
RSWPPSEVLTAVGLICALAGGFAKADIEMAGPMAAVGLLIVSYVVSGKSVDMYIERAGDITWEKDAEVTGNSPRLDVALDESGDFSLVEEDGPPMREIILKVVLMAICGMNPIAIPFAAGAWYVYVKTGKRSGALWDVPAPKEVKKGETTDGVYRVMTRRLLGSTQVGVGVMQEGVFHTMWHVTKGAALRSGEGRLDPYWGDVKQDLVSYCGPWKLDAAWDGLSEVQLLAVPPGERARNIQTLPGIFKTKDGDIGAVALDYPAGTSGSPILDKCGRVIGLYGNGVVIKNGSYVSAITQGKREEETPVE

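Pools of virus carrying all single amino acid changes were selected for growth in Huh-7.5 cells. The effect is the change in frequency of a mutant, normalised to wild type, as a mean of three replicate libraries (two for positions 207-308). The aim was to find sites where inhibitor-binding pockets cannot change.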

Values are log2 effects on growth: 0 is wild type, lower means poorer growth. A change reads original residue, position, new residue. All changes here are to a stop codon. Stop codons (*) centre on -7 and mark the level of dead virus.

For A119* the result was -6.52. With G120* the assay gave -7.32. For A121* the result was -7.09. W122* read -7.70. With Y123* the assay gave -6.59. V124* read -7.23. Y125* read -7.12. With V126* the assay gave -6.38.

K127* read -6.90. For T128* the result was -6.71. For G129* the result was -6.68. For K130* the result was -6.36. R131* gave -6.88. With S132* the assay gave -6.34. For G133* the result was -5.96. A134* read -6.05.

For L135* the result was -7.72. For W136* the result was -6.68. D137* read -7.17. V138* read -6.75. P139* read -5.81. A140* gave -5.65. With P141* the assay gave -5.77. With K142* the assay gave -6.04.

With E143* the assay gave -3.46. V144* read -6.71. For K145* the result was -6.38. K146* gave -6.53. For G147* the result was -4.41. E148* read -5.08. For T149* the result was -5.09. For T150* the result was -6.01.

For D151* the result was -7.01. For G152* the result was -6.89. V153* gave -5.96. With Y154* the assay gave -6.20. R155* read -6.31. With V156* the assay gave -6.31. With M157* the assay gave -6.97. With T158* the assay gave -6.77.

For R159* the result was -7.16. For R160* the result was -7.17. For L161* the result was -6.76.

The opening 4 entries, copied out:

| mutation | log2 effect |
|---|---|
| A119* | -6.52 |
| G120* | -7.32 |
| A121* | -7.09 |
| W122* | -7.70 |

Six mutants with high scores were retested singly and none clearly outgrew wild type, so positive values are not proof of better growth. The region was split into three libraries (1-103, 104-206, 207-308). The authors count -1 or higher as tolerated. Position 1 is the last residue of NS2A.